Source: patent publication US20140037648A1 (HUMABS BIOMED, published 2014)

Protein sequences, listed by entry. Tags and fused reporters are not part of them. Residues count along the entry.
UniProt P12568, 26-574: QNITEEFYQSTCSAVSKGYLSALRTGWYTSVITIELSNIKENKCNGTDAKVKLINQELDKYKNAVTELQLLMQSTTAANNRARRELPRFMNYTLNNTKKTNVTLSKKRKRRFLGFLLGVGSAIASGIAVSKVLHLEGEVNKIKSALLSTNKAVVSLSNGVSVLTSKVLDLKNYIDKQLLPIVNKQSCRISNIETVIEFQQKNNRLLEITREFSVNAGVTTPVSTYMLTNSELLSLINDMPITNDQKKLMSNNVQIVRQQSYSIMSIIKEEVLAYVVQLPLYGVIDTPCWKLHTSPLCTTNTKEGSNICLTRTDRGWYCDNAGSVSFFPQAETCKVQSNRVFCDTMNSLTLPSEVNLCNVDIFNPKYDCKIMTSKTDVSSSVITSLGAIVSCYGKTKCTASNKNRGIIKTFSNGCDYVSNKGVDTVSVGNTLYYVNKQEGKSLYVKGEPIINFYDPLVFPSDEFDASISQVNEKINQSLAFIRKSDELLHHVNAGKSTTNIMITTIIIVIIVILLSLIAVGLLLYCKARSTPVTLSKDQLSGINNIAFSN

Biological target: F protein of RSV Long (A, Maryland US, 1956; A/Long/56) (RSV (strain Long), UniProt P12568 26-574)
Assay: cell-based or functional assay

B1: Palivizumab (antibody, V domains shown)
VH: QVTLRESGPALVKPTQTLTLTCTFSGFSLSTSGMSVGWIRQPPGKALEWLADIWWDDKKDYNPSLKSRLTISKDTSKNQVVLKVTNMDPADTATYYCARSMITNWYFDVWGAGTTVTVSS
VL: DIQMTQSPSTLSASVGDRVTITCKCQLSVGYMHWYQQKPGKAPKLLIYDTSKLASGVPSRFSGSGSGTEFTLTISSLQPDDFATYYCFQGSGYPFTFGGGTKLEIK
  Neutralization IC50: 0.599 mg/L
